Record: PubChem BioAssay AID624099 (ICCB-Longwood, 2012)
Shown is an unselected part of about 21,000 reagents. 497 of all reagents (2.4%) count as active. 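Higher z means weaker E2 silencing; only reporter increases were scored, and knock-downs that hurt cell survival may mask genuine repressor factors.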 Unmarked entries are inactive. The numbers tell different reagents against one gene apart.

- Aim: 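Knock-downs relieving repression by E2 of an HPV18 LCR luciferase reporter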 (primary screen)
- System: human C33A cervical carcinoma cells (HPV-negative) stably expressing BPV1 E2 and an HPV18 LCR luciferase reporter
- Reagent: siRNA pool against human genes, 40 nM
- Time to read-out: 72 h
- Read-out: 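Per-well luciferase luminescence, z-scored on each plate against the plate mean and SD with control wells left out, then averaged across three replicate plates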
- Reading the numbers: mean z-score and z-score: higher = stronger reporter signal, weaker E2 silencing
- Active means: 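Mean z ≥ 2 together with z ≥ 2 in two or more of the three replicates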

GADD45GIP1 (GADD45G interacting protein 1) — mean z-score = -0.45; z-score, replicate A = -0.45; z-score, replicate B = -0.24; z-score, replicate C = -0.67
TCEA1P3 (transcription elongation factor A1 pseudogene 3) — mean z-score = -0.57; z-score, replicate A = -0.73; z-score, replicate B = -0.68; z-score, replicate C = -0.31
RANBP3 (RAN binding protein 3) — mean z-score = -1.18; z-score, replicate A = -1.47; z-score, replicate B = -0.76; z-score, replicate C = -1.32
OR5M11 (olfactory receptor family 5 subfamily M member 11) — mean z-score = 0.71; z-score, replicate A = 0.22; z-score, replicate B = 1.06; z-score, replicate C = 0.86
TMEM53 (transmembrane protein 53) — mean z-score = 1.46; z-score, replicate A = 1.47; z-score, replicate B = 1.69; z-score, replicate C = 1.21
SLC11A2 — mean z-score = -0.45; z-score, replicate A = -0.43; z-score, replicate B = -0.13; z-score, replicate C = -0.8
INSAF (retired record) — mean z-score = -0.09; z-score, replicate A = 0.09; z-score, replicate B = -0.3; z-score, replicate C = -0.05
PRNT (prion locus lncRNA, testis expressed) — mean z-score = 0.72; z-score, replicate A = 0.73; z-score, replicate B = 0.53; z-score, replicate C = 0.89
ZNF280C (zinc finger protein 280C) — mean z-score = 0.07; z-score, replicate A = -0.01; z-score, replicate B = 0.25; z-score, replicate C = -0.03
CITED2 (Cbp/p300 interacting transactivator with ED-rich tail 2) — mean z-score = -0.23; z-score, replicate A = -0.36; z-score, replicate B = -0.33; z-score, replicate C = 0
LINC02870 (long independently transcribed non-coding RNA 2870) — mean z-score = -0.21; z-score, replicate A = -0.43; z-score, replicate B = -0.12; z-score, replicate C = -0.08
TBC1D8B (TBC1 domain family member 8B) — mean z-score = 1.06; z-score, replicate A = 1.06; z-score, replicate B = 1.12; z-score, replicate C = 1.02
PLEKHM3 (pleckstrin homology domain containing M3) — mean z-score = -0.95; z-score, replicate A = -0.91; z-score, replicate B = -1.12; z-score, replicate C = -0.83
GADL1 (GAD like acidic amino acid decarboxylase 1) — mean z-score = 0.55; z-score, replicate A = 0.34; z-score, replicate B = 0.68; z-score, replicate C = 0.62
TAS2R38 (taste 2 receptor member 38) — mean z-score = 0.14; z-score, replicate A = 0; z-score, replicate B = 0.13; z-score, replicate C = 0.29
SUN3 (Sad1 and UNC84 domain containing 3) — mean z-score = 0.14; z-score, replicate A = 0.09; z-score, replicate B = 0.37; z-score, replicate C = -0.06
LRRC47 (leucine rich repeat containing 47) — mean z-score = -0.69; z-score, replicate A = -0.98; z-score, replicate B = -0.79; z-score, replicate C = -0.29
RPL41 (ribosomal protein L41) — mean z-score = 0.59; z-score, replicate A = 0.65; z-score, replicate B = 0.58; z-score, replicate C = 0.55
LOC401353 (retired record) #1 — mean z-score = -0.23; z-score, replicate A = -0.38; z-score, replicate B = -0.68; z-score, replicate C = 0.36
LOC401353 (retired record) #2 — mean z-score = 0.17; z-score, replicate A = 0.21; z-score, replicate B = 0.13; z-score, replicate C = 0.16
PMCHL2 (pro-melanin concentrating hormone like 2 (pseudogene)) — mean z-score = -0.11; z-score, replicate A = -0.19; z-score, replicate B = -0.28; z-score, replicate C = 0.13
